Measured values from several laboratories, pooled; numbers as filed in NIAID ChemDB.

All rows: growth or infection tests; organism: HIV-1; read by: syncytia; measure: EC50

ECn: concentration that inhibits the pathogen or its effect by n%. Neighbouring rows are from separate reports. Blank or dashed fields: not listed here.

SMILES	cell line	strain	mutations	result
CC1=C(C(=O)Nc2ccc(Cl)c(C(=O)OC3CCCCC3C)c2)SCCO1	CEM	TSAO-resistant (RT E138K)	RT-E138K	0.75 µg/mL
CCCCCCCCCC[N+](C)(C)CCCNCc1c(O)cc2c(c1O)-c1cc(ccc1O)[C@H]1NC(=O)[C@@H]3NC(=O)C4NC(=O)[C@@H](Cc5ccc(c(Cl)c5)Oc5cc3cc(c5O)Oc3ccc(cc3Cl)[C@@H](O)[C@H](NC1=O)C(=O)N[C@@H]2C(=O)O)NC(=O)[C@H](N)c1ccc(O)c(c1)Oc1cc(O)cc4c1	CEM	-	RT-Y188H	6 µM
CCC(CC)OC(=O)c1cc(NC(=S)OC(C)C)ccc1Cl	CEM	-	RT-L100I	2.036 µM
CC(C)OC(=O)c1cc(NC(=S)OC(C)C)ccc1Cl	CEM	IIIB	-	0.029 µM
O=[N+]([O-])c1ccc[n+]([O-])c1SCc1ccccc1	CEM	IIIB	RT-Y181C	≥20 µg/mL
CC(C)OC(=S)Nc1ccc(Cl)c(C(=O)SC(C)C)c1	CEM	-	RT-Y181C	1.808 µM
Cc1cccc(CS(=O)(=O)c2cccc[n+]2[O-])c1	MT-2	IIIB	-	16 µg/mL
CC(C)OC(=O)c1cc(NC(=S)OCC2CC2)ccc1Cl	CEM	-	RT-Y181C	18.3 µM
Cc1ccc(C)c(CS(=O)(=O)c2cccc[n+]2[O-])c1	CEM	IIIB	RT-K103N	11 µg/mL
C=C(C)COc1cc(NC(=S)OC(C)C)ccc1Cl	CEM	-	RT-E138K	2.335 µM
CCOCn1c(Cc2cc(C)cc(C)c2)c(CC)c(=O)[nH]c1=O	CEM	IIIB	RT-Y181I	0.35 µM
CN1N=C(N)c2cn([C@@H]3O[C@H](COP(=O)(O)O)[C@@H](O)[C@H]3O)c3ncnc1c23	CEM + CEM-SS	H-1112	-	0.16 µM
CC1=C(C(=O)Nc2ccc(Cl)c(OCC=C(Cl)Cl)c2)SCCO1	CEM	TIBO R82150-resistant (RT L100I)	RT-L100I	2 µg/mL
CCCC1=C(C(=O)Nc2ccc(Cl)c(C(=O)OCC)c2)SCCO1	CEM	Nevirapine-resistant (RT V106A)	RT-V106A	>10 µg/mL
CC(C)=CCOc1cc(NC(=S)c2ccoc2C)ccc1Cl	CEM	IIIB	RT-Y188L	1.5 µM
Cc1occc1C(=O)Nc1ccc(Cl)c(SCC=C(Cl)Cl)c1	CEM	IIIB	-	0.093 µg/mL
Nc1ccn([C@H]2CS[C@@H](COC(=O)CCCCCNCCCCNCc3ccccc3)O2)c(=O)n1	MT-4	LAV	-	1.8 µM
COc1ccc(NC(=S)OC(C)C)cc1CC(=O)OC(C)C	CEM	-	RT-L100I	2.305 µM
CC(=O)NCCCc1cccnc1CN(C)Cc1nc2ccccc2[nH]1	C8166	IIIB	-	9.48 µM
CCOCn1c(Sc2ccccc2)c(C(C)C)c(=O)[nH]c1=O	CEM	IIIB (TIBO 82150) (RT-L100I)	RT-L100I	0.11 µM
OC[C@H]1OC(O)C[C@@H](O)[C@@H]1O	H9	-	-	<10000 µM
CCOCn1c(Cc2ccccc2)c(CC)c(=O)[nH]c1=O	CEM	IIIB	Nevirapine resistant (RT Y181C)	0.52 µM
CN(Cc1nc2ccccc2[nH]1)Cc1ncccc1CCCNC(=O)OC(C)(C)C	C8166	IIIB	-	3.821 µM
Nc1ccn([C@H]2CS[C@@H](COC(=O)CCCCCNCCCCCNCc3ccccc3)O2)c(=O)n1	MT-4	LAV	-	2.03 µM
Cc1sccc1C(=O)Nc1ccc(Cl)c(OCC=C(Cl)Cl)c1	CEM	TSAO-m3T-resistant (RT E138K)	RT-E138K	0.95 µg/mL
Cc1cn([C@H]2C=C[C@@H](COP(=O)(Nc3cc(C(=O)Nc4cc(C(=O)Nc5cc(C(=O)NCCC(=N)N)n(C)c5)n(C)c4)n(C)c3)OC(C)C)O2)c(=O)[nH]c1=O	CEM	-	-	0.65 µM
C=CCSc1cc(NC(=S)OC(C)C)ccc1Cl	CEM	IIIB	-	0.127 µM
CCc1c(Sc2cc(C)cc(C)c2)n(COCCO)c(=S)[nH]c1=O	CEM	IIIB	RT-Y181C	0.55 µM
Nc1cccc2c1C(=O)N(C13CC4CC(CC(C4)C1)C3)C2=O	CEM	IIIB	-	>4 µg/mL
COC(=O)c1cc(NC(=O)C2=C(C)OCCS2)ccc1Cl	CEM	TSAO-resistant (RT E138K)	RT-E138K	>10 µg/mL
O=C(CCCCCCC(=O)Nc1cc(S(=O)(=O)O)cc2cc(S(=O)(=O)O)cc(O)c12)Nc1cc(S(=O)(=O)O)cc2cc(S(=O)(=O)O)cc(O)c12	MT-4	IIIB	-	<20 µM
Cc1cn([C@H]2C[C@H](N=[N+]=[N-])[C@@H](COP(=O)(Nc3cc(C(=O)Nc4cc(C(=O)NCCC(=N)N)n(C)c4)n(C)c3)OC3CCCCC3)O2)c(=O)[nH]c1=O	CEM	-	-	0.201 µM
Cc1ccc(C)c(CSc2c(Cl)ccc[n+]2[O-])c1	CEM	IIIB	RT-Y181C	≥20 µg/mL
CCOCn1c(Sc2ccccc2)c(C(C)C)c(=O)[nH]c1=S	CEM	IIIB	RT-Y188H	≥30 µM
CC(C)OC(=S)Nc1ccc(Cl)c(C(=O)OC2CC2)c1	CEM	-	RT-E138K	2.071 µM
CCCOC(=O)c1cc(NC(=O)C2=C(C)OCCS2)ccc1Cl	CEM	PYR-resistant (RT Y181C)	RT-Y181C	4.5 µg/mL
COc1ccc(NC(=S)c2ccoc2C)cc1OCC=C(Cl)Cl	CEM	IIIB	-	0.012 µg/mL
CC(C)OC(=O)c1cc(NC(=S)OC(C)C)ccc1Cl	CEM	-	RT-V106A	2.06 µM
Cc1ccc(C)c(CS(=O)(=O)c2cccc[n+]2[O-])c1	CEM	RF	-	7.2 µg/mL
CSC(=Nc1ccc(Cl)c(C(=O)OC(C)C)c1)OC(C)C	CEM	-	RT-Y181C	>30.13 µM
COCCOC(=O)c1cc(NC(=O)C2=C(C)OCCS2)ccc1Cl	CEM	IIIB	-	0.6 µg/mL
COc1ccc(NC(=S)C2=C(C)OCCS2)cc1OCC=C(Cl)Cl	CEM	IIIB	-	0.27 µg/mL
C/C=C\COc1cc(NC(=S)OC(C)C)ccc1OC	CEM	-	RT-Y181C	12.53 µM
Cc1occc1C(=S)Nc1ccc(Cl)c(SCC=C(Cl)Cl)c1	CEM	Pyridone-resistant (RT Y181C)	RT-Y181C	0.13 µg/mL
O=C1c2ccccc2[C@@]2(O)C3C4C[C@H]5CC(C[C@H]3C5)C4N12	CEM	IIIB	-	>20 µg/mL
COc1ccc(C)cc1CS(=O)(=O)c1cccc[n+]1[O-]	CEM	RF	-	10 µg/mL
CC(C)c1c(Sc2ccccc2)n(COCc2ccccc2)c(=S)[nH]c1=O	CEM	IIIB	RT-E138K	0.05 µM
Cc1occc1C(=O)Nc1ccc(Cl)c(/C=N/N2CCCC2)c1	CEM	R82150-resistant (RT L100I)	RT-L100I	<2 µg/mL
CCc1c(Sc2ccccc2)n(COCc2ccccc2)c(=O)[nH]c1=O	CEM	IIIB	RT-Y181I	0.35 µM
COC(=O)Oc1ccc(NC(=O)C2=C(C)OCCS2)cc1C(=O)OC(C)C	CEM	Nevirapine-resistant (RT V106A)	RT-V106A	>10 µg/mL
CC(C)=CCOc1cc(NC(=S)c2ccoc2C)ccc1Cl	CEM	IIIB	RT-Y181C	0.06 µg/mL
Cc1ccccc1OC(=O)c1cc(NC(=S)OC(C)C)ccc1Cl	CEM	-	RT-Y181C	≥27.48 µM
Cc1cn([C@H]2C[C@H](N=[N+]=[N-])[C@@H](COP(=O)(Nc3cc(C(=O)Nc4cc(C(=O)Nc5cc(C(=O)NCCC(=N)N)n(C)c5)n(C)c4)n(C)c3)OC(C)C)O2)c(=O)[nH]c1=O	CEM	-	-	0.078 µM
CC1=C(C(=O)Nc2cccc(C(=O)OC(C)C)c2)SCCO1	CEM	PYR-resistant (RT Y181C)	RT-Y181C	>10 µg/mL
CSCCOC(=S)Nc1ccc(Cl)c(C(=O)OC(C)C)c1	CEM	-	RT-L100I	14.37 µM
C=C(Cl)COc1cc(NC(=S)c2ccsc2C)ccc1C#N	CEM	TIBO R82150-resistant (RT L100I)	RT-L100I	0.2 µg/mL
CCNc1cccnc1N1CCN(C(=O)c2cc3ccccc3o2)CC1	MT-2	-	-	2 µM
COC(=S)Nc1ccc(Cl)c(C(=O)OC(C)C)c1	CEM	IIIB	-	6.6 µM
CN(Cc1nc2ccccc2[nH]1)Cc1ncccc1CCCNS(C)(=O)=O	C8166	IIIB	-	4.112 µM
CC(C)COC(=O)c1cc(NC(=S)OC(C)C)ccc1Cl	CEM	-	RT-Y181C	6.063 µM
CC(C)c1c(Sc2ccccc2)n(COCCO)c(=O)[nH]c1=O	CEM	IIIB	Nevirapine resistant (RT Y181C)	2.7 µM
C/C(Cl)=C/COc1cc(NC(=O)c2ccoc2C)ccc1Cl	CEM	TSAO-m3T-resistant (RT E138K)	RT-E138K	0.32 µg/mL
CC(C)(C)OC(=O)N(CCCCCC(=O)OC[C@H]1O[C@@H](n2ccc(N)nc2=O)CS1)CCCCCN(Cc1ccccc1)C(=O)OC(C)(C)C	Macrophage + Monocytes/macrophages	PAR	-	0.00001 µM
CN(Cc1ncccc1CCC#N)Cc1nc2ccccc2n1C(=O)OC(C)(C)C	C8166	IIIB	-	14 µM
CC(C)(C)OC(=O)c1cc(NC(=S)OC(C)(C)C)ccc1Cl	CEM	-	RT-Y181C	>29.08 µM
O=C1CCCC(C23CC4CC(C2)CC(N2C(=O)c5ccccc5C2=O)(C4)C3)C1	CEM	IIIB	-	>4 µg/mL
CC(C)OC(=S)Nc1ccc(Cl)c(C(=O)OC2(C)COC2)c1	CEM	-	RT-L100I	2.036 µM
C=C(C)[C@@H]1CC[C@]2(C(=O)NCCCCCCCC(=O)N[C@@H](CC(C)C)[C@@H](O)CC(=O)O)CC[C@]3(C)[C@H](CC[C@@H]4[C@@]5(C)CC[C@H](O)C(C)(C)[C@@H]5CC[C@]43C)[C@@H]12	HeLa P4 + HeLa	LAI	GP41-L91H	>10 µM
Cc1cc(C)c(CS(=O)c2cccc[n+]2[O-])c(C)c1	CEM	IIIB	-	2.4 µg/mL
COC(=O)CCc1cccnc1CN(C)Cc1nc2ccccc2[nH]1	C8166	IIIB	-	15.5 µM
CC(C)OC(=O)c1cc(NC(=S)OC(C)C)ccc1Cl	CEM	IIIB	RT-L100I	2.06 µM
CC(C)(C)OC(=O)N(CCCCCC(=O)Nc1ccn([C@H]2CS[C@@H](CO)O2)c(=O)n1)CCCCCN(Cc1ccccc1)C(=O)OC(C)(C)C	Macrophage + Monocytes/macrophages	PAR	-	0.05 µM
CC1=C(C(=O)Nc2ccc(C)c(C(=O)OC(C)C)c2)SCCO1	CEM	TIBO-resistant (RT L100I)	RT-L100I	7 µg/mL
O=C1c2ccccc2C(=O)N1C1CC2CC3CC(C2)CC1C3	CEM	IIIB	-	>4 µg/mL
Cc1occc1C(=S)Nc1ccc(Cl)c(/C=N/OC(C)(C)C)c1	CEM	IIIB	-	0.142 µM
CCCCCCCCCC[N+](C)(C)CCCNCc1c(O)cc2c(c1O)-c1cc(ccc1O)[C@H]1NC(=O)[C@@H]3NC(=O)C4NC(=O)[C@@H](Cc5ccc(c(Cl)c5)Oc5cc3cc(c5O)Oc3ccc(cc3Cl)[C@@H](O)[C@H](NC1=O)C(=O)N[C@@H]2C(=O)O)NC(=O)[C@H](N)c1ccc(O)c(c1)Oc1cc(O)cc4c1	CEM	MN	-	6.5 µM
CCOCn1c(Cc2ccccc2)c(C(C)C)c(=O)[nH]c1=O	CEM	IIIB	-	0.002 µM
CC[C@H](C)OC(=S)Nc1ccc(Cl)c(C(=O)OC(C)C)c1	CEM	-	RT-Y181C	1.971 µM
Cc1ccc(C(C)S(=O)(=O)c2c(C)ccc[n+]2[O-])c(C)c1	CEM	IIIB	-	3.4 µg/mL
COc1ccc(NC(=S)c2ccsc2C)cc1OCC=C(Cl)Cl	CEM	TIBO R82913-resistant (RT K103N)	RT-K103N	1.6 µg/mL
CC[C@@H](C)OC(=S)Nc1ccc(Cl)c(C(=O)OC(C)C)c1	CEM	-	RT-L100I	0.91 µM
O=C1c2ccccc2C(=O)N1CCCC12CC3CC(CC(C3)C1)C2	CEM	IIIB	-	>4 µg/mL
COCC1=C(C(=O)Nc2ccc(Cl)c(C(=O)OC(C)C)c2)SCCO1	CEM	TSAO-resistant (RT E138K)	RT-E138K	3.5 µg/mL